Data reported in article PMC3198815 (PLoS ONE, 2011).

Legend:
[1] = tested on: C/C=C/C(=O)SCCNC(=O)CCNC(=O)[C@H](O)C(C)(C)COP(=O)(O)OP(=O)(O)OC[C@H]1O[C@@H](n2cnc3c(N)ncnc32)[C@H](O)[C@@H]1OP(=O)(O)O; test: purified protein; conditions: NADH as co-substrate, 20 mM Tris-HCl pH 7.5, 1 mM NaCl, 25°C
[2] = tested on: NC(=O)C1=CN([C@@H]2O[C@H](COP(=O)(O)OP(=O)(O)OC[C@H]3O[C@@H](n4cnc5c(N)ncnc54)[C@H](O)[C@@H]3O)[C@@H](O)[C@H]2O)C=CC1; test: purified protein; conditions: crotonyl-CoA as substrate, 20 mM Tris-HCl pH 7.5, 1 mM NaCl, 25°C, varied: cofactor

Substance: xoFabV (Xanthomonas oryzae pv. oryzae MAFF 311018)
- Km [1]: 293 ± 16.5 µM
- kcat [1]: 22.25 ± 2.42 s⁻¹
- kcat/Km [1]: 75000 M⁻¹ s⁻¹
- Km [2]: 18.7 ± 2.0 µM
